From patent US20240115717A1 (priority 2020, published 2024)

Chains of the proteins cited; added tags and fusions are not shown. Lines headed by an entry give the natural chain unless they say otherwise; changes in a name come on top.
UniProt O14786: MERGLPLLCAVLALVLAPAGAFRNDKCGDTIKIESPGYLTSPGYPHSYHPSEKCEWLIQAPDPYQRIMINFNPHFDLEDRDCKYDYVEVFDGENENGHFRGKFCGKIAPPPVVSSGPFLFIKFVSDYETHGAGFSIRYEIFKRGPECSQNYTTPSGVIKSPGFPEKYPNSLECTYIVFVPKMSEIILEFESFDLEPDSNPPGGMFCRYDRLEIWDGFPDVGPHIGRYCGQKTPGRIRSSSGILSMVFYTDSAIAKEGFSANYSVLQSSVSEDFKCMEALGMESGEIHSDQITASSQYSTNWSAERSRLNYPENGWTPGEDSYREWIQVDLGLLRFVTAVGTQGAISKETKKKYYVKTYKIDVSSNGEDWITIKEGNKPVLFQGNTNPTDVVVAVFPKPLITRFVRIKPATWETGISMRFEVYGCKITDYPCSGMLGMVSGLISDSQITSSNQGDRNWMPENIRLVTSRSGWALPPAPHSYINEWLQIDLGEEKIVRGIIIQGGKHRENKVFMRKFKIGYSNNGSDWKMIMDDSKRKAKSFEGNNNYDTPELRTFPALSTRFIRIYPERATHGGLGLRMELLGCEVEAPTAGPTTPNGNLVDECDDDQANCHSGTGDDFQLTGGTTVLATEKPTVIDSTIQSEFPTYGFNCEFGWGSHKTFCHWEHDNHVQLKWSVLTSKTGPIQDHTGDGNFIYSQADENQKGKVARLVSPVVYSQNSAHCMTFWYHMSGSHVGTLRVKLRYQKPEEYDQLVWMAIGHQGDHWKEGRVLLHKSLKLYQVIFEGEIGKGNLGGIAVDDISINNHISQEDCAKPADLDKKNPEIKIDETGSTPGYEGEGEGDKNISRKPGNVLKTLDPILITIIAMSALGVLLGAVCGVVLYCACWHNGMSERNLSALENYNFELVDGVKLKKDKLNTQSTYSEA

Biological target: NRP1 (Homo sapiens, UniProt O14786)
Type: binding
Details: phage-displayed; 2.6×10^14 phage particles/mL; FIG. 3; in words

Chlorotoxin [SEQ ID NO: 1]
NRP1 binding: approximately equivalent binding to both MMP-2 and NRP1
